This is an account of results in PMC9426499.

The subject of series [1] is ParRC(pCW3) (Clostridium perfringens plasmid pCW3). Kind of series: competition with a labelled probe. To be noted: EMSA, 200x unlabeled C5 vs DIG-C5; recombinant protein; protein details: C-terminal His6.
Series [2] has the same test system. Nature of the series: AUC sedimentation velocity. To be noted: recombinant protein, protein details: C-terminal His6.
The test system is the same in series [3]. Nature of the series: EMSA. The conditions noted are these: 1:1 and 1:4 DNA:protein, poly[d(I-C)]; recombinant protein; protein details: C-terminal His6.

For at least one entry, the source does not settle the construct or the ends of the probe.

For the sequence “AAAATGAAAAAAACATCACAATTTTACGGA (double strand) [parCC C5 30 bp]”, the binding result in series [1] is given as “binds”; in series [2] (shift 2.7 S to 4.2 S, >25 uM ParR), “binds”; in series [3], “binds”.
On to “TTTAGATTGAAAAAAATGATAATATAAAAA (double strand) [parCC C9 30 bp]”, for which the binding result in series [2] (nonspecific at >25 uM ParR) was “binds”.
